Structures are written as SMILES. Some of the results follow. Results filed as inconclusive are left out. Calls of active or inactive are those of the source. No stated cut-off is given here; in the data, inconclusive means inhibition above about 70% without an active follow-up result; inactive means below that.

The nature of the test: M. tuberculosis growth inhibition, HTS (AID 449762).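 Further: bacterial growth assessed after seven days of incubation.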 To be noted: M. tuberculosis H37Rv growth inhibition, 7H9 media; at 25 µM; active compounds read high.
Consider `COc1cc(OC)cc(C(=O)NCC2(N3CCCCC3)CCCCC2)c1`, for which the inhibition was inactive: 1.66%.
With `Cc1ccc(C(=O)NCC2(N3CCCCC3)CCCCC2)o1`, the inhibition is inactive: -6.34%.
For `Fc1ccccc1NC1CCN(Cc2ccccc2)CC1` the value was inactive: -5.26%.
For the compound `CCN1CCC(Nc2cccc(F)c2)CC1`, the inhibition was inactive: -9.81%.
In the case of `O=C(NCC1(N2CCCCC2)CCCCC1)c1ccco1`, the inhibition was inactive: 10.8%.
For `CN(C)c1ccc(C(=O)NCC2(N3CCCCC3)CCCCC2)cc1` the value was inactive: -6.13%; for `CCOc1ncccc1C(=O)NCC1(N2CCOCC2)CCCCC1`, inactive: -5.9%.
The value for `CN1CCC(Nc2ccc(F)c(Cl)c2)CC1` was inactive: -2.86%; that for `CC(C)(C)OC(=O)N1CCC(Nc2ccccc2)CC1` was inactive: 3.23%; that for `O=C(O)C1(Nc2ccccc2)CCN(Cc2ccccc2)CC1` was inactive: -3.84%.
The value for `CCCOc1ccc(C(=O)NCC2(N(C)C)CCCCC2)cc1` was inactive: 7.66%; that for `COc1cc(OC)cc(C(=O)NCC2(N3CCOCC3)CCCCC2)c1` was inactive: 2.37%.
Regarding `COc1cccc(C(=O)N(c2cc(C)cc(C)c2)C2CCN(C(=O)OC(C)(C)C)CC2)c1`, the inhibition was inactive: 2.71%.
The value for `CCC(CO)(C(=O)OC1CN2CCC1CC2)c1ccccc1` (centres undefined) was inactive: -2.77%.
In the case of `CN1CCC(Nc2ccc(Cl)cc2)CC1`, the inhibition was inactive: 3.42%.
`CCCOc1ccc(C)cc1CN(CCCl)CCCl`: the inhibition is inactive: 5.38%.
The value for `COc1cc(C(=O)NCC2(N3CCOCC3)CCCCC2)cc(OC)c1C` was inactive: -9.77%; that for `O=C(NCC1(N2CCOCC2)CCCCC1)c1cc(Br)ccc1Cl` was inactive: -5.27%.
For `COc1ccc(C(=O)NCC2(N3CCOCC3)CCCCC2)cc1OC`, the inhibition is inactive: 1.03%.
For `CCOC(=O)N1CCC(Nc2ccc(C)cc2)CC1` the value was inactive: -1.07%.
As to `N/C(=N\O)c1c(N)no[n+]1[O-]`, the inhibition was inactive: 0.2%.
For `O=C(OC1CN2CCC1CC2)C1c2ccccc2C=Cc2ccccc21` (centres undefined) the value was inactive: 3.49%.
Consider `CCc1cc(C(=O)NCC2(N3CCCCC3)CCCCC2)sc1C`, for which the inhibition is inactive: -0.65%.
Consider `N#Cc1ccc(C(=O)NCC2(N3CCCCC3)CCCCC2)cc1`, for which the inhibition was inactive: -0.58%.
With `CC(C)(C)OC(=O)N1CCC(N(C(=O)c2ccccc2)c2ccc(Cl)cc2)CC1`, the inhibition is inactive: 9.79%.
For `CN(C)C1(CNC(=O)c2cccc(C#N)c2)CCCCC1` the value was inactive: 4.57%; for `c1ccc(CN2CCC(Nc3ccccc3)CC2)cc1`, inactive: -6.29%; for `CCCN1CCC(Nc2cc(OC)cc(OC)c2)CC1`, inactive: 0.8%.
As to `O=C(NCC1(N2CCCCC2)CCCCC1)c1ccc(OC(F)F)cc1`, the inhibition was inactive: 0.86%.
The value for `CCN1CCC(Nc2ccc(Cl)cc2)CC1` was inactive: -0.85%; that for `N#CC1(Nc2ccccc2)CCN(CCc2ccccc2)CC1` was inactive: -7.64%; that for `O=C(NCC1(N2CCCCC2)CCCCC1)c1cccc([N+](=O)[O-])c1` was inactive: -7.82%.
The value for `O=C(NCC1(N2CCCCC2)CCCCC1)c1cccc(C(F)(F)F)c1` was inactive: 3.44%; that for `COc1cc(C(=O)NCC2(N3CCCCC3)CCCCC2)ccc1OC(F)F` was inactive: -2.58%; that for `O=C(NCC1(N2CCOCC2)CCCCC1)c1cc(=O)[nH]c2ccccc12` was inactive: 2.03%.
The value for `CN1CCN(CCOC(=O)C(O)(c2ccccc2)c2ccccc2)CC1` was inactive: 1.44%; that for `COc1ccc(NC2CCN(C(=O)OC(C)(C)C)CC2)cc1` was inactive: 1.01%; that for `CC(C)c1ccc(NC2CCN(C(=O)OC(C)(C)C)CC2)cc1` was inactive: 8.67%.
With `COc1ccc(CN(CCCl)CCCl)cc1Cl`, the inhibition is inactive: -4.44%.
The value for `CN(C)c1cccc(C(=O)NCC2(N3CCCCC3)CCCCC2)c1` was inactive: -4.01%.
For `COc1cc(OC)c(C(=O)NCC2(N(C)C)CCCCC2)cc1OC` the value was inactive: 5.31%.
For `O=C(NCC1(N2CCOCC2)CCCCC1)c1cc(F)c(F)cc1Cl` the value was inactive: -5.92%.
In the case of `O=C(NCC1(N2CCCCC2)CCCCC1)c1cncc(Br)c1`, the inhibition is inactive: 4.11%.
Consider `CN1CCC(Nc2cccc(F)c2)CC1`, for which the inhibition is inactive: 1.44%.
For `CCCOc1ccc(C(=O)NCC2(N(C)C)CCCCC2)cc1OC` the value was inactive: -6.54%.
The value for `COc1ccc(C(=O)NCC2(N3CCCCC3)CCCCC2)cc1` was inactive: -3.6%; that for `COc1ccc(C(=O)NCC2(N3CCCCC3)CCCCC2)c(OC)c1OC` was inactive: -4.35%; that for `CC(C)(C)OC(=O)N1CCC(N(C(=O)c2ccccc2)c2ccc(F)cc2)CC1` was inactive: 7.1%.
For `O=C(NCC1(N2CCCCC2)CCCCC1)c1ccc(=O)[nH]c1`, the inhibition is inactive: -26.4%.
In the case of `O=C(NCC1(N2CCCCC2)CCCCC1)c1cccs1`, the inhibition was inactive: -2.45%.
Consider `CSc1ccccc1C(=O)NCC1(N2CCCCC2)CCCCC1`, for which the inhibition was inactive: -1.18%.
Turning to `O=C(NCC1(N2CCCCC2)CCCCC1)c1ccc(Cl)nc1`, the inhibition was inactive: -9.58%.
For `Cc1cc(C)cc(N(C(=O)c2ccccc2)C2CCN(C(=O)OC(C)(C)C)CC2)c1` the value was inactive: 20.7%; for `O=C(NCC1(N2CCOCC2)CCCCC1)c1cc2ccccc2o1`, inactive: 1.89%.
`N#CC1(Nc2ccccc2)CCN(Cc2ccccc2)CC1`: the inhibition is inactive: 2.7%.
Consider `O=C(NCC1(N2CCCCC2)CCCCC1)c1ccc(Cl)s1`, for which the inhibition is inactive: 4.38%.
The value for `COc1ccc(Cl)cc1C(=O)NCC1(N2CCOCC2)CCCCC1` was inactive: 4.74%; that for `CCOC(=O)N1CCC(Nc2ccc(OC)cc2)CC1` was inactive: -0.4%.
For the compound `CCOc1ccc(C)cc1CN(CCCl)CCCl`, the inhibition is inactive: -4.63%.
For `O=C(NCC1(N2CCCCC2)CCCCC1)c1ccc(F)cc1`, the inhibition was inactive: 3.03%.
Consider `CCOC(=O)N1CCC(Nc2ccc(F)cc2)CC1`, for which the inhibition is inactive: 3.97%.
For `COc1cc(C(=O)NCC2(N(C)C)CCCCC2)ccc1OC(F)F` the value was inactive: 6.18%; for `CCOC(=O)N1CCC(Nc2cccc(C)c2)CC1`, inactive: -3.65%.
The value for `Cc1ccc(OCC(C)C)c(CN(CCCl)CCCl)c1` was inactive: 2.39%.

Values taken from PubChem BioAssay AID449762 (Southern Research Specialized Biocontainment Screening …, 2010).
